The numbers were not newly measured in patent publication US4340539A, “Derivatives of 6-bromo penicillanic acid” (priority 1980, dated 1982), which cites them from elsewhere.

The data set deals with M. pyogenes aureus 209P. The note with it: cited from earlier work.

In the case of `CC1(C)S[C@@H]2C(Cl)C(=O)N2[C@H]1C(=O)O` (some centres unmarked), the microbiological activity entry is recorded as “devoid of microbiological activity”.
Regarding `CC1(C)SC2C(Br)C(=O)N2[C@H]1C(=O)O` (some centres unmarked), the microbiological activity entry was “devoid of microbiological activity”.
